Anti-infective test results gathered from many reports (values: NIAID ChemDB through PubChem).

All rows: toxicity to cultured cells; cells: C8166; measure: CC50

Neighbouring rows are from separate reports. Blank or dashed fields: not listed here. CCn is the concentration with n% toxicity to the cells.

SMILES | read by | value
COC(=O)[C@H](Cc1ccccc1)NP(=O)(OC)C(Cc1ccccc1)NC(=O)OCc1ccccc1 | - | 100 µM
COC(=O)CNP(=O)(NCC(=O)OC)OC[C@H]1O[C@@H](n2cc(C)c(=O)[nH]c2=O)C[C@@H]1N=[N+]=[N-] | - | >100 µM
CC/C=C\C/C=C\C/C=C\C/C=C\C/C=C\C/C=C\CCC(=O)O[C@@]12[C@H](O)[C@@H](C)[C@@]3(O)[C@@H](C=C(CO)C[C@]4(O)C(=O)C(C)=C[C@@H]34)[C@@H]1C2(C)C | MTT | 46.9 µM
O=C(O)C/C(=C/C(=O)NCCCC[C@H](NC(=O)OCc1ccccc1)C(=O)N[C@@H](CCCCNC(=O)/C=C(/CC(=O)O)C(=O)O)C(=O)OCc1ccccc1)C(=O)O | XTT | 250 µM
CN1CCN(c2ccnc3nc(CN(CCCCN)Cc4ncccc4/C=C/C#N)[nH]c23)CC1 | MTT | >10 µM
Cc1cn([C@H]2C[C@H](N=[N+]=[N-])[C@@H](COP(=O)(N[C@@H](C)C(=O)OCc3ccccc3)OCC(Cl)(Cl)Cl)O2)c(=O)[nH]c1=O | - | >100 µM
COc1ccc(/C=C/C(=O)O[C@@H]2[C@@H](C)[C@@]3(O)[C@@H](C=C(CO)C[C@]4(O)C(=O)C(C)=C[C@@H]34)[C@@H]3C(C)(C)[C@]23OC(C)=O)cc1 | MTT | 109 µM
O=C(CCCCCNC(=O)[C@H](CCCCNC(=O)c1cccc(O)c1C(=O)O)NC(=O)OCc1ccccc1)N[C@@H](CCCCNC(=O)c1cccc(O)c1C(=O)O)C(=O)OCc1ccccc1 | XTT | 40 µM
CCCNP(=O)(NCCC)OC[C@H]1O[C@@H](n2cc(C)c(=O)[nH]c2=O)C[C@@H]1N=[N+]=[N-] | - | >100 µM
CN(Cc1nc2ccccc2[nH]1)Cc1ncccc1CCC(N)=O | MTT | >10 µM
NC(=O)[C@H](CCCCNC(=O)c1c(O)cccc1C(=O)O)NC(=O)[C@H](CCCCNC(=O)c1cccc(O)c1C(=O)O)NC(=O)[C@H](CCCCNC(=O)c1cccc(O)c1C(=O)O)NC(=O)c1ccccc1 | XTT | 250 µM
CC[C@H](C)[C@H](NC(=O)[C@H](Cc1ccccc1)NP(=O)(OC)C(N)Cc1ccccc1)C(=O)NCC(C)C | - | 30 µM
Cc1cccnc1CN(CCCCN)Cc1nc2nccc(N3CCN(C)CC3)c2[nH]1 | MTT | >10 µM
C=CCOC(=O)CC(O)(CC(=O)O)C(=O)NCCCC[C@H](NC(=O)OCc1ccccc1)C(=O)N[C@@H](CCCCNC(=O)C(O)(CC(=O)O)CC(=O)OCC=C)C(=O)OCc1ccccc1 | XTT | 500 µM
O=c1ccn([C@@H]2O[C@H](CO)[C@@H](F)[C@@H]2F)c(=O)[nH]1 | - | >100 µM
C.NCCCCN(Cc1nc2ccccc2[nH]1)C1CCCn2ccnc21 | MTT | >10 µM
CCCC(=O)O[C@@]12[C@H](OC(=O)/C=C/c3ccccc3)[C@@H](C)[C@@]3(O)[C@@H](C=C(COC(=O)/C=C/c4ccccc4)C[C@]4(O)C(=O)C(C)=C[C@@H]34)[C@@H]1C2(C)C | MTT | >200 µM
COC(=O)[C@H](C)NP(=O)(OC[C@H]1O[C@@H](n2cc(C)c(=O)[nH]c2=O)C[C@@H]1N=[N+]=[N-])OCC(Cl)(Cl)Cl | - | >100 µM
CCCCCCCCC(=O)O[C@@]12[C@H](OC(=O)/C=C/c3ccc(OC)cc3)[C@@H](C)[C@@]3(O)[C@@H](C=C(CO)C[C@]4(O)C(=O)C(C)=C[C@@H]34)[C@@H]1C2(C)C | MTT | 52.7 µM
COC(=O)C[C@H](NP(=O)(N[C@@H](CC(=O)OC)C(=O)OC)OC[C@H]1O[C@@H](n2cc(C)c(=O)[nH]c2=O)C[C@@H]1N=[N+]=[N-])C(=O)OC | - | >100 µM
CC[C@@H](C)[C@H](NC(=O)[C@@H]1CCCN1[P@](=O)(OC)[C@@H](Cc1ccccc1)NC(=O)[C@H](CC(N)=O)NC(=O)OC(C)(C)C)C(=O)NCC(C)C | - | 100 µM
CN(Cc1ccccn1)Cc1ncccc1CCC#N | MTT | >10 µM
CC[C@H](C)[C@H](NC(=O)[C@@H]1CCCN1[P@@](=O)(OC)[C@H](Cc1ccccc1)NC(=O)OCc1ccccc1)C(=O)NCC(C)C | - | 5 µM
CN1CCN(c2ccnc3nc(CN(C)Cc4ccccn4)[nH]c23)CC1 | MTT | >10 µM

For reference, 3 entries again:

SMILES	read by	value
CCCNP(=O)(NCCC)OC[C@H]1O[C@@H](n2cc(C)c(=O)[nH]c2=O)C[C@@H]1N=[N+]=[N-]	-	>100 µM
O=c1ccn([C@@H]2O[C@H](CO)[C@@H](F)[C@@H]2F)c(=O)[nH]1	-	>100 µM
CC/C=C\C/C=C\C/C=C\C/C=C\C/C=C\C/C=C\CCC(=O)O[C@@]12[C@H](O)[C@@H](C)[C@@]3(O)[C@@H](C=C(CO)C[C@]4(O)C(=O)C(C)=C[C@@H]34)[C@@H]1C2(C)C	MTT	46.9 µM